A mixed list of measured activities; the numbers were collected in NIAID ChemDB.

Common to all: toxicity to cultured cells; read-out: CC50

Blank or dashed fields: not listed here. CCn: concentration that lowers growth or viability of the cells by n%. Rows are shuffled and stem from different studies.

| SMILES | setting | cell line | read by | value |
|---|---|---|---|---|
| CN1C[C@H](O)[C@H](O)[C@@H](O)[C@@H]1CO |  | Karpas 45 cells |  | >500 µg/mL |
| CN[C@@H]1[C@@H](O[C@H]2O[C@H](CO)[C@@H](N)[C@H](O)[C@H]2O)O[C@H]2C[C@@H](N)C(O[C@H]3[C@H](O)[C@@H](O)[C@H](N)C[C@@H]3N)O[C@@H]2[C@@H]1O |  | HeLa |  | >200 µg/mL |
| OC(c1cc(-c2ccc(Cl)cc2)nc2c(Cl)cccc12)C1CCCCN1 |  | VERO |  | 1.5 µg/mL |
| CN(C(=O)Nc1ccccc1F)C1N=C(c2ccccc2)c2ccccc2NC1=O |  | HEP-2 |  | 9.5 µM |
| N#CC1(c2nc3ccccc3o2)C(=O)C(=O)N(C2C3CC4CC(C3)CC2C4)C(=O)C1=O |  | VERO |  | >10 µg/mL |
| COC(=O)c1c(OC)cc2cc3c(c(O)c2c1C)C(=O)[C@]1(O)C(=O)C=C(OC)[C@@H](O)[C@]1(O)C3=O |  | HeLa |  | 212 µM |
| CC(=O)c1cc(O)c(O)c(=O)cc1C | 7 d | HepG2-NTCP-12 | MTS | 6.74 µM |
| CCOC(=O)c1ccc2c(c1)nc(-c1ccc(C(=O)O)cc1)n2CCN1CCCOC1 |  | Vero cell | MTT | >62.5 µg/mL |
| C[N+](C)(C)CC(=O)N/N=C/c1ccc([N+](=O)[O-])o1 |  | VERO |  | 63.95 µg/mL |
| CN1C[C@H](O)[C@H](O)[C@H]1CO |  | Karpas 45 cells |  | >100 µg/mL |
| CCc1nc(N)nc(N)c1-c1ccc(Cl)cc1 |  | Vero cell | MTT | >62.5 µg/mL |
| NC(Cc1c[nH]c2ccccc12)C(=O)NC(Cc1c[nH]c2ccccc12)C(=O)NC(Cc1c[nH]c2ccccc12)C(=O)O |  | VERO |  | 22.02 µg/mL |
| C[C@H]1c2cccc(O)c2C(O)=C2C(=O)[C@]3(O)C(O)=C(C(N)=O)C(=O)[C@@H](N(C)C)[C@@H]3[C@@H](O)[C@@H]21 |  | HeLa |  | >100 µM |
| Nc1nc(OCCOCP(=O)(O)O)cc(=O)[nH]1 |  | CCRF-CEM |  | <10 µM |
| CCC(C)OC(=O)NC1N=C(c2ccccc2)c2ccccc2NC1=O |  | HEP-2 |  | 9.88 µM |
| CC(=O)OC1CC2C(C)(C)CCCC2(C)C2C(=O)C(O)=C(C(C)C)C(=O)C12 |  | VERO |  | 0.5 µg/mL |
| O=C1Nc2ccc(Cl)cc2C(c2ccccc2)=NC1NC(=O)N1CCCCC1 |  | HEP-2 |  | 5 µM |
| OC[C@@H]1NC[C@H](O)[C@H](O)[C@H]1O |  | Karpas 45 cells |  | >500 µg/mL |
| Nc1nc(NC2CC2)cc(OCCOCP(=O)(O)O)n1 |  | L929 |  | <10 µM |
| Nc1ncnc2c1ncn2[C@@H]1O[C@H](CO)[C@@H](O)[C@@H]1O |  | CBMC | MTT | 104 µM |
| Cc1cc(=O)c2c([nH]1)c1c(c3[nH]c(C)cc(=O)c32)Oc2ccccc2O1 |  | VERO |  | 56.6 µg/mL |
| O=c1cc(-c2ccc(Oc3c(O)cc4oc(-c5ccc(O)cc5)cc(=O)c4c3O)cc2)oc2cc(O)cc(O)c12 |  | MA-104 | visual reading | 1 µg/mL |
| CCN(CC)CCN(C)c1ccc(CO)c2c1C(=O)c1ccccc1S2=O |  | VERO |  | 4.53 µg/mL |
| CN[C@@H]1[C@@H](O)[C@@H](O[C@@H]2[C@@H](O)[C@H](O[C@H]3OC([C@H](C)N)=CC[C@H]3N)[C@@H](N)C[C@H]2N)OC[C@]1(C)O |  | HeLa |  | >200 µg/mL |
| O=C(O)[C@H]1NCC[C@@H](O)[C@@H]1O |  | Karpas 45 cells |  | >180 µg/mL |
| NC1=NN(c2ccccc2)C(=O)C1C(=O)C(=O)Nc1ccccc1 |  | VERO |  | >10 µg/mL |
| CCOC(=O)c1ccc2nc(-c3ccc(C(=O)O)cc3)[nH]c2c1 |  | Vero cell | MTT | >62.5 µg/mL |
| Cc1c2ccncc2c(C)c2c1[nH]c1ccc(O)cc12 |  | VERO |  | >10 µg/mL |
| COc1ccc(-c2cc(=O)c3c(OC)cc(OC)c([C@H]4C(=O)c5c(OC)cc(OC)cc5O[C@@H]4c4ccc(OC)cc4)c3o2)cc1 |  | BSC-1 | visual reading | <60 µg/mL |
| Nc1cc(OCCOCP(=O)(O)O)nc(N)n1 |  | HeLa S3 |  | <10 µM |
| OC[C@H]1N[C@H](CO)[C@@H](O)[C@@H]1O |  | Karpas 45 cells |  | >320 µg/mL |
| CC(=O)Oc1ccc([C@@H]2CC(=O)c3c(cc(OC(C)=O)c(-c4c(OC(C)=O)cc5c(c4OC(C)=O)C(=O)C[C@@H](c4ccc(OC(C)=O)cc4)O5)c3OC(C)=O)O2)cc1 |  | BSC-1 | neutral red | <200 µg/mL |
| CCOC(=O)c1ccc2c(c1)nc(-c1ccccc1)n2CCN1CCCC1=O |  | Vero cell | MTT | >62.5 µg/mL |
| CCN(CC)c1ccc2nc3ccc(N=Nc4c(O)ccc5ccccc45)cc3[n+](-c3ccccc3)c2c1.[Cl-] |  | VERO |  | 0.9 µg/mL |
| CCOC(=O)c1ccc2nc(-c3ccc(OC(F)(F)F)cc3)[nH]c2c1 |  | Vero cell | MTT | >62.5 µg/mL |
| Nc1ncnc2c1ncn2C[C@@H](CO)OCP(=O)(O)O |  | CBMC | MTT | 23 µM |
| CC(=O)N[C@@H](C=O)[C@@H](O)[C@H](O)[C@H](O)C(=O)O |  | HeLa |  | 200 µg/mL |
| Cc1ccn2c(N=O)c(-c3ccccc3)nc2c1 |  | VERO |  | >12.5 µg/mL |
| COC1=CC(=O)N(C(=O)C2CSC(C(CO)NC(=O)c3csc(C=NO)n3)=N2)C1 |  | HeLa |  | 100 µg/mL |
| [CH3][Sn]([CH3])([Cl])[Br].c1cnc2c(c1)ccc1cccnc12 |  | VERO |  | 0.77 µg/mL |
| O=C(O)P(=O)(O)O |  | HSB-2 | MTT | 250 µM |
| CN[C@@H]1[C@@H](O)[C@@H](O[C@@H]2[C@@H](O)[C@H](O[C@H]3O[C@H]([C@H](C)N)[C@@H](O)[C@H](O)[C@H]3N)[C@@H](N)C[C@H]2N)OC[C@]1(C)O |  | HeLa |  | >100 µg/mL |
| Cc1cccc(Cl)c1NC(=O)NC1N=C(c2ccccc2)c2ccccc2NC1=O |  | HEP-2 |  | 4 µM |
| CCN(CC)CCNc1ccc(C)c2sc3cccc(O)c3c(=O)c12 |  | VERO |  | 1.23 µg/mL |
| CCOC(=O)c1ccc2nc(-c3ccc(C(F)(F)F)cc3)[nH]c2c1 |  | Vero cell | MTT | >62.5 µg/mL |
| N#[N+]c1c([O-])ccc2nc3ccccc3nc12 |  | VERO |  | 1.7 µg/mL |
| CN1[C@H](CO)[C@@H](O)[C@H](O)[C@H]1CO |  | Karpas 45 cells |  | >100 µg/mL |
| O=[N+]([O-])/C=C/c1cc2c(ccc3ccccc32)[nH]1 |  | VERO |  | 1.09 µg/mL |
| O=C(O)CP(=O)(O)O |  | CBMC | MTT | 300 µM |
| CC(N=c1cc2n(-c3ccc(Cl)cc3)c3ccccc3nc-2cc1Nc1ccc(Cl)cc1)c1ccccc1 |  | VERO |  | 11.2 µg/mL |
| CN(C)c1cc(=O)n(CCOCP(=O)(O)O)c(N)n1 |  | L1210 |  | <10 µM |
| NNC(=O)C(=O)Nc1ccc(F)cc1 |  | VERO |  | >50 µg/mL |
| CN1C[C@@H](O)[C@@H](O)[C@H](O)[C@H]1CO |  | Karpas 45 cells |  | >300 µg/mL |
| NC(=O)CCCCC1CCSS1 |  | VERO |  | 59 µg/mL |
| COc1cc2c(c3c1c(=O)c1ccccc1n3C)C=CC(C)(C)O2 |  | HeLa |  | <20 µg/mL |
| COc1cc2ccccc2cc1C(=O)N[C@H]1N=C(c2ccccc2)c2ccccc2NC1=O |  | HEP-2 |  | 1.5 µM |
| c1cnc2c(c1)ccc1cccnc12 |  | VERO |  | <4.16 µg/mL |